# Percent effect of library compounds

Values are the deposited “Percent Effect”, in %. The record does not define 0% and 100%; most values in the screen are far below 50% and negative numbers occur (in some assays of this library far below -100). This is part of a subset picked to be rich in strong results. A dash means the value is not listed here; it may have been measured.

A: 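Growth of Mycobacterium tuberculosis over 3 days (7H9 medium with glucose and tyloxapol); the read-out is not stated. Concentration: 500 µM. The record gives no direction; compounds that gave an IC50 in retests scored well above the rest, so higher reads as more growth inhibition. Size under these conditions: about 18,000 compounds, about 1,400 of them at 50% or above in at least one test.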
B: 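Phenotypic screen: M. tuberculosis growth, cholesterol and DPPC medium, 4 days; the read-out is not stated. Compounds at 500 µM. The record gives no direction; compounds that gave an IC50 in retests scored well above the rest, so higher reads as more growth inhibition. Size under these conditions: about 18,000 compounds, about 900 of them at 50% or above in at least one test.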

structure | A | B
CC(CN)CNC(=O)c1ccc(C(F)(F)F)cc1 (configuration not stated) | 51.73 | -
COc1cccc(-c2cnn(CCC(N)=O)c2)c1F | 46.59 | 64.19
CC(NS(=O)(=O)N(C)C)c1ccccc1 (configuration not stated) | 17.43 | 7.168
CNCC(=O)NC(C)c1ccc(F)c(OC)c1 (configuration not stated) | -0.644 | -
Cn1cc(CNC(=O)C2CSc3ccccc3O2)cn1 (configuration not stated) | 64.08 | 54.84
COC(=O)N1CCC(NC(C)CCn2cccn2)CC1 (configuration not stated) | 11.46 | -
CC(CN1CCN(c2ccccn2)CC1)NS(C)(=O)=O (configuration not stated) | 16.39 | -
COc1cc(NCC2(N(C)C)CCSC2)ncn1 (configuration not stated) | - | 2.668
c1cncc(CCNc2ccc3nnnn3n2)c1 | -2.752 | -1.489
COCC(=O)NC1CCc2ccccc21 (configuration not stated) | 53.68 | -
CC(O)CNC(=O)NCc1ccc2c(c1)OCCO2 (configuration not stated) | 6.756 | -8.564
Cc1ccc(C(=O)N2CCOCC2)cc1-n1cccc1 | 19.31 | -
C1CCC(OCC2CCNCC2)C1 | 4.17 | -
Cn1cnc(S(=O)(=O)NCc2ccccn2)c1Cl | -6.821 | -
Cc1cc(C)nc(NC(=O)c2cc[nH]n2)c1 | - | 3.952
O=C(NC1CCN(C2CC2)CC1)c1cncc(Br)c1 | - | -6.748
CN1C(=O)c2ccc(C(=O)Nc3nccs3)cc2C1=O | - | -10.4
NC(=O)CCC(F)(F)F | 0.9226 | -
CC(C)Oc1ccc(C(=O)NCCNC(C)(C)C)cn1 | 11.56 | -
NCc1ccnc(-n2ccnc2)c1 | -3.796 | -
NC(=O)NCC(=O)Nc1cccc(C2SCCS2)c1 | 7.311 | -
Cc1ccc(CN(C)CC(N)=O)o1 | 2.929 | -
Cc1nc(NC(=O)CN2CCn3ccnc3C2)sc1C | 18.59 | -
c1ccc(COCCc2noc(C3CNC3)n2)cc1 | 101.5 | 112.2
CC(CS(C)(=O)=O)N(C)C(=O)Cc1ccc(Cl)c(Cl)c1 (configuration not stated) | 41.78 | 17.69
CC(=O)N1CSCC1c1nc(-c2cccs2)no1 (configuration not stated) | 18.56 | -
NC(=O)C1CCN(C(=O)CN2CCOCC2)CC1 | - | -13.67
CN(C)C(=O)C1CCCN1C(=O)c1cccc(C#N)c1 (configuration not stated) | -2.588 | -
CCc1cnc(CN(C(C)=O)C2CCNC2)o1 (configuration not stated) | - | 2.652
Cc1ccc(C(=O)N2CCC(NC(N)=O)CC2)cc1Cl | -10.77 | -
CC(C)(C)OC(=O)N[C@@H]1[C@@H]2CNC[C@H]1CS(=O)(=O)C2 | -9.878 | -
CCOCCC1(CN)CCC1 | 0.6584 | -
CS(=O)(=O)NCCSCC(O)c1ccccc1 (configuration not stated) | 17.27 | -
CCOc1ccccc1NC(=O)Cn1ccnc1 | - | -5.981
Cc1nscc1C(=O)OCCCn1cccn1 | 35.56 | -
Cc1ccnc(NC(=O)CSc2nnc(N)s2)n1 | 7.293 | -
COc1ccc(-n2c(CCN)n[nH]c2=O)cc1OC | 6.859 | -
CCCC(N)CNS(=O)(=O)c1ccc(C)cc1F (configuration not stated) | 24.7 | -
CC1CN(c2nccc(N(C)C)n2)CCS1(=O)=O (configuration not stated) | 16.12 | -
Cc1ccnc(OC2CCNCC2)c1 | 20.99 | -
CC(=O)Nc1ccc(C2=NN=C(NC3CC3)SC2)cc1 | 38.78 | -2.725
CC(CNc1ccc2nnnn2n1)N1CCOCC1 (configuration not stated) | -5.586 | -
Cc1ncccc1CNC(C(N)=O)c1ccc(F)cc1 (configuration not stated) | - | -13.71
O=C(NCC1CCCCN1)Nc1ccccc1 (configuration not stated) | - | 6.715
COCCN1CCN(Cc2cccnc2C)CC1=O | - | -2.851
N#Cc1c[nH]c(C(=O)NCC(=O)N2CCNCC2)c1 | 1.241 | -
O=C(N[C@@H]1CCOC[C@H]1O)c1ccncc1 | - | -5.282
NC(=O)C(c1ccc(Br)cc1F)N1CC[S+]([O-])CC1 (configuration not stated) | - | -5.182
O=C(NCc1cccs1)c1cnsn1 | 70.42 | 64.99
CCNC(=O)C1CCN(C(=O)CSc2nnc(N)s2)C1 (configuration not stated) | 8.776 | -
O=C(NC(C1CC1)C1CC1)N1CCC2(CC1)OCCO2 | -18.25 | -
CNS(=O)(=O)c1ccc(C(=O)NCc2ccccc2)o1 | 58.17 | -
Cc1cc(C)nc(NC(=O)C(C)C)n1 | -8.5 | -
O=C(CO)N1CCCC(CCc2ccccc2F)C1 (configuration not stated) | 62.66 | 48.21
COCCN1CCCN(C(=O)c2cc(Cl)c[nH]2)CC1 | 63.83 | 63.51
Cc1cc(N2CCC2c2ccccc2)n2ncnc2n1 (configuration not stated) | 83.03 | -
COCCCNCc1cccc(OC)c1 | 13.13 | 9.566
N#CCCNC(=O)CSc1ccccc1F | - | 4.559
CN(C)CCNC(=O)CCC(=O)Nc1ccc(Cl)cc1 | - | 15.65
CC1CCCCN1CC(=O)NC1(C#N)CCCC1 (configuration not stated) | -0.8095 | -
NS(=O)(=O)CCNC(=O)CCc1ccc(Br)cc1F | 30.51 | -2.481
NCCCc1cccc(F)c1 | 92.41 | 102.9
Cc1ccc(C(=O)NCCSc2nccn2C)c(=O)[nH]1 | 27.64 | -
O=C(CC1(O)CCCCC1)NCC(O)c1ccsc1 (configuration not stated) | - | 22.48
COC(=O)C1CCN(C(=O)Cc2cccc(F)c2)CC1 | 50 | -
CCCc1nc(CN2Cc3ncccc3C2=O)cs1 | 81.33 | 40.09
CC1=C(C(=O)NC(C)c2nc3ccccc3[nH]2)CCO1 (configuration not stated) | 23.4 | -
CCCNC(=O)NCCc1noc(-c2cccnc2)n1 | - | 5.047
Cc1cc(NC(=O)NCC(O)CN2CCCCC2)no1 (configuration not stated) | - | 1.281
CN(C)C(CNC(=O)c1ccncc1)c1ccco1 (configuration not stated) | 20.11 | -6.697
COc1cccc2c1C(N)CO2 (configuration not stated) | 7.085 | -
C[C@@H]1CCNC[C@H](C)O1 | - | -8.936
Cc1csc(CCN)n1 | 56.42 | 35.08
CCC1c2ccsc2CCN1C(C)=O (configuration not stated) | 45.86 | 23.81
COc1cccc(S(=O)(=O)CCN2CCN(C)CC2)c1 | 31.5 | 89.57
CC1COCCN1C(=O)Cc1cccc2cccnc12 (configuration not stated) | - | 16.87
CC(CCS(C)(=O)=O)NC(=O)N1CCC=C(Br)C1 (configuration not stated) | 9.065 | -
Cc1nc(CNC(=O)c2ccc3c(c2)N(C)CC3)no1 | - | 4.521
O=C(Cc1ccccc1F)NCCNc1ncccn1 | - | -0.01274
N#Cc1ncn(CC(=O)c2ccc3c(c2)CCO3)n1 | 15.85 | -

Some entries from above, unchanged:

| structure | A | B |
|---|---|---|
| `CCc1cnc(CN(C(C)=O)C2CCNC2)o1` (configuration not stated) | - | 2.652 |
| `CCNC(=O)C1CCN(C(=O)CSc2nnc(N)s2)C1` (configuration not stated) | 8.776 | - |
| `COC(=O)N1CCC(NC(C)CCn2cccn2)CC1` (configuration not stated) | 11.46 | - |
| `CCC1c2ccsc2CCN1C(C)=O` (configuration not stated) | 45.86 | 23.81 |
| `Cc1ncccc1CNC(C(N)=O)c1ccc(F)cc1` (configuration not stated) | - | -13.71 |
| `CCCC(N)CNS(=O)(=O)c1ccc(C)cc1F` (configuration not stated) | 24.7 | - |
| `O=C(N[C@@H]1CCOC[C@H]1O)c1ccncc1` | - | -5.282 |
| `COc1cccc(-c2cnn(CCC(N)=O)c2)c1F` | 46.59 | 64.19 |

Data taken from ChEMBL document CHEMBL3988442, “University of Dundee, Small-Polar-MMV Screening Library” (2021).